Measured values from several laboratories, pooled; numbers as filed in NIAID ChemDB.

All rows: whole-cell or culture tests; species: Candida parapsilosis; measure: MIC

Neighbouring rows are from separate reports. Blank or dashed fields: not listed here.

| SMILES | strain | read by | result |
|---|---|---|---|
| CNC(=S)NNC(=O)c1cn2ccccc2n1 | ATCC 22019 | broth dilution | 64 µg/mL |
| O=c1c(N2CCOCC2)c(N2CCN(S(=O)(=O)Cc3ccccc3)CC2)cnn1-c1ccccc1 | C231 | broth dilution | 200 µg/mL |
| Nc1nc(=O)n([C@H]2O[C@@H](CO)[C@H](O)[C@@H]2O)cc1F | ATCC 22019 | broth dilution | 0.75 µg/mL |
| CCOC(=O)C1C(=O)C=C(c2ccc(OC)cc2)CC1c1ccc(C2CC(c3ccc(OC)cc3)=CC(=O)C2C(=O)OCC)cc1 | Clinical isolate |  | 50 µg/mL |
| Cc1coc2c1C(=O)[C@@H]1[C@](C)([C@H](O)CC[C@@]1(C)O)[C@@H]2O | ATCC 22019 | broth dilution | >256 µg/mL |
| CCCCCCCCCCCCCCCC(=O)NC(CCCCN)C(=O)NC(CCCCN)C(N)=O | ATCC 4874 | broth dilution | 2 µg/mL |
| CN(Cc1ccc(S(N)(=O)=O)cc1)CC(O)(Cn1cncn1)c1ccc(F)cc1F | CAPA1 | resazurin | 0.91 µg/mL |
| O=C(/C=C/c1cc(Cl)ccc1Cl)c1c[nH]c2ccccc12 | NRRL Y-12696 | broth dilution | 25 µg/mL |
| Nn1c(SCC(O)(Cn2cncn2)c2ccc(F)cc2F)nnc1-c1ccccc1 | ATCC 22019 | broth dilution | >64 µg/mL |
| CN(Cc1ccc(S(=O)(=O)Nc2ccccc2)cc1)CC(O)(Cn1cncn1)c1ccc(F)cc1F | CAPA1 | resazurin | 0.1 µg/mL |
| CC1CC(=O)N(c2ccc([N+](=O)[O-])cc2)C1=O | CCC 124-2000 | broth dilution / turbidity | 125 µg/mL |
| CCCC[C@@H](C)/C=C(C)/C=C(\C)C(=O)N/C(=C/[C@@](C)(O)/C=C/C=C/C=C/C(=O)NC1=C(O)CCC1=O)C(=O)[C@@H]1CO1 |  | broth dilution | 25 µM |
| Cc1ccc(N/N=c2/sc3nnc(-c4ccncc4)n3nc2C)cc1 | ATCC 22019 | broth dilution | >100 µg/mL |
| CC1=C2C3=C4[C@](C)([C@@H]5C[C@@H]5[C@@]4(O)C[C@@H]4[C@]35OC(=O)C3=C5C[C@H]5[C@](O)(COC(=O)/C(C)=C/COC(=O)CCC(=O)OC3)[C@H]3C[C@H]3[C@]45C)[C@@H](O)[C@]2(O)OC1=O | ATCC 22019 | broth dilution | >256 µg/mL |
| Nn1c(SCC(O)(Cn2cncn2)c2ccc(Cl)cc2Cl)nnc1-c1ccncc1 | ATCC 22019 | broth dilution | >64 µg/mL |
| COc1ccc(C2CC(c3ccc4ccccc4c3)=Cc3[nH][nH]c(=O)c32)cc1 |  |  | 200 µg/mL |
| C/C(=N\NC([S-])=Nc1ccccc1F)c1ccccn1.CCC[CH2][Sn+3] | ATCC 22019 | broth dilution | 14.98 µM |
| Cc1ccccc1NC(=S)NNC(=O)c1cc2ccccc2cn1 | ATCC 22019 | agar | 50 µg/mL |
| O=c1[nH][nH]c2c1C(c1ccc(F)cc1)CC(c1ccc3ccccc3c1)=C2 |  |  | 6.25 µg/mL |
| Nc1scc2c1c(=O)oc1ccc3ccccc3c12 | ATCC 22019 | broth dilution | 16 µg/mL |
| CN(Cc1ccc(NS(=O)(=O)c2ccccc2)cc1)CC(O)(Cn1cncn1)c1ccc(F)cc1F | CAPA1 | resazurin | 1.2 µg/mL |
| Brc1ccc(Nc2nnc(-c3cn4ccccc4n3)o2)cc1 | ATCC 22019 | broth dilution | 64 µg/mL |
| O=C(NNC(=S)Nc1ccc(F)cc1)c1cccs1 | ATCC 22019 | agar | 50 µg/mL |
| O=C(NNC(=S)Nc1ccccc1)c1cn2ccccc2n1 | ATCC 22019 | broth dilution | 32 µg/mL |
| O=C(/C=C/c1cccc(Cl)c1Cl)c1c[nH]c2ccccc12 | NRRL Y-12696 | broth dilution | 25 µg/mL |
| C/C(=N\NC([S-])=Nc1ccccc1Cl)c1ccccn1.CCC[CH2][Sn+3] | ATCC 22019 | broth dilution | 58.13 µM |
| CN(Cc1ccc(S(=O)(=O)Nc2ccc([N+](=O)[O-])cc2)cc1)CC(O)(Cn1cncn1)c1ccc(F)cc1F | CAPA2 | resazurin | 0.73 µg/mL |
| CN1C(=O)CS/C1=N/NC(=O)c1cn2ccccc2n1 | ATCC 22019 | broth dilution | 64 µg/mL |
| CC(C)(O)c1cn(-c2ccc(Cl)cc2)nn1 | URM 3627 | broth dilution | 64 µg/mL |
| Cc1nn2c(-c3ccncc3)nnc2sc1=NNc1ccc(Cl)cc1 | ATCC 22019 | broth dilution | 6.25 µg/mL |
| CC(C)S(=O)(=O)N1CCN(c2cnn(-c3cc(F)cc(F)c3)c(=O)c2OC2CCC(F)C2)CC1 | C231 | broth dilution | 0.25 µg/mL |
| CCCNS(=O)(=O)c1ccc(CN(C)CC(O)(Cn2cncn2)c2ccc(F)cc2F)cc1 | CAPA2 | resazurin | 1.5 µg/mL |
| O=C(O[C@@H]1COC(=O)c2cc(O)c(O)c(O)c2-c2c(cc(O)c(O)c2O)C(=O)OC1C1OC(=O)c2cc(O)c(O)c(O)c2-c2c(O)c(O)c(O)c3c2C(=O)OC1[C@H]3O)c1cc(O)c(O)c(O)c1 | ATCC 22019 | broth dilution | 580 µg/mL |
| CC1=C2C[C@@H]3[C@](C)(CCC[C@@]3(C)O)C[C@]2(O)OC1=O | ATCC 22019 | broth dilution | >256 µg/mL |
| C[C@@H]1CC(=O)N(c2ccc(F)cc2)C1=O | CCC 124-2000 | broth dilution / turbidity | 31.3 µg/mL |
| Nn1c(SCC(O)(Cn2cncn2)c2ccc(Cl)cc2Cl)nnc1-c1ccc(O)cc1 | ATCC 22019 | broth dilution | >64 µg/mL |
| C[C@@H]1C(=O)N(CCCc2ccccc2)C(=O)[C@@H]1C | CCC 124-2000 | broth dilution / turbidity | 62.5 µg/mL |
| O=C(/C=C/c1ccc(Cl)c(Cl)c1)c1c[nH]c2ccccc12 | NRRL Y-12696 | broth dilution | 25 µg/mL |
| C[C@H]1[C@H](O)[C@@H](C)/C=C/C=C/C=C/C=C/C=C/C=C/C=C/[C@H](O[C@@H]2O[C@H](C)[C@@H](O)[C@H](N)[C@@H]2O)C[C@@H]2O[C@](O)(C[C@@H](O)C[C@@H](O)CC[C@H](O)[C@@H](O)C[C@@H](O)CC(=O)O[C@H]1C)C[C@H](O)[C@H]2C(=O)O | 90018 | broth dilution | 0.06 µg/mL |
| O=C(/C=C/c1ccc(Cl)cc1Cl)c1c[nH]c2ccccc12 | NRRL Y-12696 | broth dilution | 25 µg/mL |
| CCCCCCCC/C=C\CCCCCCCC(=O)N[C@H](C(=O)N1C[C@H](C)C[C@H]1C(=O)N[C@H](C(=O)N[C@@H](CCO)C(=O)N[C@@H](C)C=O)C(C)C)[C@@H](C)O | ATCC 22019 | broth dilution / visual reading | 2 µg/mL |
| C[C@H]1[C@H](O)[C@@H](C)/C=C/C=C/C=C/C=C/C=C/C=C/C=C/[C@H](O[C@@H]2O[C@H](C)[C@@H](O)[C@H](N)[C@@H]2O)C[C@@H]2O[C@](O)(C[C@@H](O)C[C@@H](O)CC[C@H](O)[C@@H](O)C[C@@H](O)CC(=O)O[C@H]1C)C[C@H](O)[C@H]2C(=O)O | MTCC 1965 | absorbance | 0.5 µg/mL |
| O=C1C(=O)c2ccccc2C2=C1CC(CI)O2 | Clinical isolate | broth dilution | 64 µg/mL |
| O=C1C=CC[C@H](/C=C/c2ccccc2)O1 |  | broth dilution | 62.1 µg/mL |
| Cc1coc2c1C(=O)[C@@H]1[C@@](C)(C2)[C@H](O)CC[C@@]1(C)O | ATCC 22019 | broth dilution | >256 µg/mL |
| CCCCCCCC/C=C\CCCCCCCC(=O)NCCCN | ATCC 22019 | broth dilution | 128 µg/mL |
| Cc1nnsc1C(=O)NNC(=S)Nc1ccc([N+](=O)[O-])cc1 | ATCC 22019 | agar | 50 µg/mL |
| C[C@H]1[C@H](O)[C@@H](C)/C=C/C=C/C=C/C=C/C=C/C=C/C=C/[C@H](O[C@@H]2O[C@H](C)[C@@H](O)[C@H](N)[C@@H]2O)C[C@@H]2O[C@](O)(C[C@@H](O)C[C@@H](O)CC[C@H](O)[C@@H](O)C[C@@H](O)CC(=O)O[C@H]1C)C[C@H](O)[C@H]2C(=O)O | ATCC 22019 | broth dilution | 0.5 µg/mL |
| COc1ccc(N2C(=O)C[C@@H](C)C2=O)cc1 | CCC 124-2000 | broth dilution / turbidity | 62.5 µg/mL |
| CCOC(=O)C1C(=O)C=C(c2ccc(F)cc2)CC1c1ccc(C2CC(c3ccc(F)cc3)=CC(=O)C2C(=O)OCC)cc1 | Clinical isolate |  | 6.25 µg/mL |
| Cc1nnsc1C(=O)NNC(=S)Nc1ccc(F)cc1 | ATCC 22019 | agar | 100 µg/mL |
| CCC(C)n1ncn(-c2ccc(N3CCN(c4ccc(OC[C@H]5CO[C@](Cn6cncn6)(c6ccc(Cl)cc6Cl)O5)cc4)CC3)cc2)c1=O | 86U | broth dilution | 1 µM |
| CCC[CH2][Sn+3].Fc1ccccc1N=C([S-])N/N=C(\c1ccccc1)c1ccccn1 | ATCC 22019 | broth dilution | 107.4 µM |
| Clc1ccc(Cl)c(Oc2ccc(NC(=NCCCNc3ccnc4cc(Cl)ccc34)Nc3ccccc3)cc2)c1 | ATCC 22019 | broth dilution / absorbance | 50 µg/mL |
| C[C@H]1[C@H](O)[C@@H](C)/C=C/C=C/C=C/C=C/C=C/C=C/C=C/[C@H](O[C@@H]2O[C@H](C)[C@@H](O)[C@H](N)[C@@H]2O)C[C@@H]2O[C@](O)(C[C@@H](O)C[C@@H](O)CC[C@H](O)[C@@H](O)C[C@@H](O)CC(=O)O[C@H]1C)C[C@H](O)[C@H]2C(=O)O | ATCC 22019 | broth dilution | 0.25 µg/mL |
| CCOC(=O)C1C(=O)C=C(c2ccc(C)cc2)CC1c1ccc(C2CC(c3ccc(C)cc3)=CC(=O)C2C(=O)OCC)cc1 | Clinical isolate |  | 200 µg/mL |
| N=C(N)c1ccc(OCCCCCCOc2ccc(C(=N)N)cc2)cc1 | Cp1 | agar diffusion / agar | 26 µg/mL |
| Cc1nn2c(-c3ccncc3)nnc2sc1=NNc1ccc(Br)cc1 | ATCC 22019 | broth dilution | 12.5 µg/mL |
| CCC(C)CC(C)CCCCCCCCC(=O)N[C@H]1C[C@@H](O)[C@H](NCCN)NC(=O)[C@@H]2[C@@H](O)CCN2C(=O)[C@H]([C@H](O)CCN)NC(=O)[C@H]([C@H](O)[C@@H](O)c2ccc(O)cc2)NC(=O)[C@@H]2C[C@@H](O)CN2C(=O)[C@H]([C@@H](C)O)NC1=O | 896/1 | broth dilution | 1 µg/mL |

8 of the rows above, restated:

| SMILES | strain | read by | result |
|---|---|---|---|
| O=C(/C=C/c1ccc(Cl)c(Cl)c1)c1c[nH]c2ccccc12 | NRRL Y-12696 | broth dilution | 25 µg/mL |
| O=C(O[C@@H]1COC(=O)c2cc(O)c(O)c(O)c2-c2c(cc(O)c(O)c2O)C(=O)OC1C1OC(=O)c2cc(O)c(O)c(O)c2-c2c(O)c(O)c(O)c3c2C(=O)OC1[C@H]3O)c1cc(O)c(O)c(O)c1 | ATCC 22019 | broth dilution | 580 µg/mL |
| CC1=C2C3=C4[C@](C)([C@@H]5C[C@@H]5[C@@]4(O)C[C@@H]4[C@]35OC(=O)C3=C5C[C@H]5[C@](O)(COC(=O)/C(C)=C/COC(=O)CCC(=O)OC3)[C@H]3C[C@H]3[C@]45C)[C@@H](O)[C@]2(O)OC1=O | ATCC 22019 | broth dilution | >256 µg/mL |
| O=C(NNC(=S)Nc1ccccc1)c1cn2ccccc2n1 | ATCC 22019 | broth dilution | 32 µg/mL |
| CCOC(=O)C1C(=O)C=C(c2ccc(C)cc2)CC1c1ccc(C2CC(c3ccc(C)cc3)=CC(=O)C2C(=O)OCC)cc1 | Clinical isolate |  | 200 µg/mL |
| Brc1ccc(Nc2nnc(-c3cn4ccccc4n3)o2)cc1 | ATCC 22019 | broth dilution | 64 µg/mL |
| Cc1coc2c1C(=O)[C@@H]1[C@@](C)(C2)[C@H](O)CC[C@@]1(C)O | ATCC 22019 | broth dilution | >256 µg/mL |
| Nn1c(SCC(O)(Cn2cncn2)c2ccc(Cl)cc2Cl)nnc1-c1ccncc1 | ATCC 22019 | broth dilution | >64 µg/mL |